The record followed here is patent publication US6626122B2, “Deactivatable biocides in ballast water” (Chevron U.S.A. Inc, priority 2001, dated 2003).

For this data set, the system named is bacterial inoculum. The data set can be described thus: Test for rapidly biodegradable hydrocarbonaceous products (visual growth of microorganisms on the product). The conditions noted are these: 10 μl inoculum. It is filed as cell-based, alkane degrading organisms.

Regarding `CCCCCCCCCCCCCCCC` [n-C16], the growth result is reported as “no growth” (at 2 days) and “growth” (at 6 days).
